Compound potency records, mixed from different reports. Data source: NIAID ChemDB in PubChem.

Common to all: whole-cell or culture tests; agent: HIV-1

ECn: concentration that inhibits the pathogen or its effect by n%.

structure	strain or isolate	conditions	mutations	read by	cells	read-out	result
N#CN=C(c1ccccc1)N1CCN(C(=O)C(=O)c2c[nH]c3cccc(F)c23)CC1	Luciferase reporter virus			luciferase	HeLa(CD4+) + HeLa	EC50	<0.5 µM
Cn1cc(NC(=O)c2cc(N)nn2C)cc1C(=O)Nc1ccc2cc(S(=O)(=O)O)cc(S(=O)(=O)O)c2c1	RF			cytopathic effect / XTT	CEM + CEM-SS	EC50	>200 µM
Cc1ccsc1C(=S)Nc1ccc(Cl)c(C(=O)OC2CCCCC2)c1			RT-V106A	syncytia	CEM	EC50	1.5 µM
CC(C)C1=C2[C@H]3CC[C@@H]4[C@@]5(C)CC[C@H](OC(=O)[C@H]6C[C@@H](C(=O)O)C6(C)C)C(C)(C)[C@@H]5CC[C@@]4(C)[C@]3(C)CC[C@@]2(CCNC(F)(F)c2ccccc2)CC1=O	92HT599			p24 / ELISA	MT-2	EC50	<1 µM
O=C(C(=O)N1CCN(C(=NCCN2CCOCC2)c2ccccc2)CC1)c1c[nH]c2c(Br)ccc(F)c12	Luciferase reporter virus			luciferase	HeLa(CD4+) + HeLa	EC50	<0.5 µM
Cc1cc2[nH]cnc2c(C)c1OCC(=O)N[C@@H](Cc1ccccc1)[C@H](O)CN(CC(C)C)S(=O)(=O)c1ccc2nc(N)oc2c1	LAI WT			cytopathic effect / MTT	MT-4	EC50	0.0013 µM
COc1cccc2c1nc(-c1ccccc1F)n2Cc1ccc(C(C)(C)C)cc1	IIIB				MT-4	EC50	>2.5 µg/mL
CC(C)C1=C2[C@H]3CC[C@@H]4[C@@]5(C)CC[C@H](OC(=O)[C@H]6C[C@@H](C(=O)O)C6(C)C)C(C)(C)[C@@H]5CC[C@@]4(C)[C@]3(C)CC[C@@]2(CCNCC(C)(C)NC(=O)c2ccc(OCCN3CCOCC3)cc2)CC1=O	92HT599			p24 / ELISA	MT-2	EC50	<1 µM
COc1cccc2c1nc(-c1ccccc1F)n2CC#N	IIIB				MT-4	EC50	>110 µg/mL
CC(C)CN(C[C@@H](O)[C@H](Cc1ccccc1)NC(=O)OC1COC2OCCNC12)S(=O)(=O)c1ccc2nc(N)oc2c1	LAI WT			cytopathic effect / MTT	MT-4	EC50	0.5623 µM
CC(C)(C)NC(=O)[C@@H]1CCCN1C(=O)[C@@H](O)[C@H](Cc1ccccc1)NC(=O)[C@H](CC(N)=O)NC(=O)OCc1ccccc1	C-2			p24	MOLT-4	EC50	~10 µM
Cc1ccc(-c2ccc3c(c2)C=C(C(=O)Nc2ccc(C[N+](C)(C)C4CCOCC4)cc2)CCC3)cc1	TB3 CLADE C			p24	PBMC	EC50	<1 µM
CC(C)OC(=O)CCNP(=O)(CO[C@H](C)Cn1cnc2c(N)ncnc21)N[C@@H](C)C(=O)OC1CCC1		50% human serum		fluorescence	MT4-GFP	EC50	488.3 µM
CC(C)C1=C2[C@H]3CC[C@@H]4[C@@]5(C)CC[C@H](OC(=O)[C@H]6C[C@@H](C(=O)O)C6(C)C)C(C)(C)[C@@H]5CC[C@@]4(C)[C@]3(C)CC[C@@]2(CCNCc2ccc(CN3CCS(=O)(=O)CC3)cc2)CC1=O	92HT599			p24 / ELISA	MT-2	EC50	<1 µM
O=C(C(=O)N1CCN(C(=NCCN2CCOCC2)c2ccccc2)CC1)c1c[nH]c2cccc(F)c12	Luciferase reporter virus			luciferase	HeLa(CD4+) + HeLa	EC50	>0.5 µM
C/C=C/CSc1cc(NC(=S)c2ccoc2C)ccc1Cl			RT-V106A	syncytia	CEM	EC50	0.075 µM
C[C@@]1(CO)CCC[C@@]2(C)C3CC[C@H]4CC3(CCC12)C[C@@]4(O)CO	IIIB			p24	H9	EC50	>100 µg/mL
CN1CC(=O)C(=O)C=C1Cn1cnc([N+](=O)[O-])c1Sc1ccccc1	IIIB			MTT	MT-4	EC50	>23.6 µM
COc1cccc2c1nc(-c1ccccc1F)n2Cc1c(F)cccc1Cl	IIIB				MT-4	EC50	0.014 µg/mL
N=C(c1ccccc1)N1CCN(C(=O)C(=O)c2c[nH]c3c(-c4nccs4)ccc(F)c23)CC1	Luciferase reporter virus			luciferase	HeLa(CD4+) + HeLa	EC50	<0.5 µM
COc1ccc(Nc2c([N+](=O)[O-])ncn2CC2=CC(=O)C(=O)CN2C)cc1	IIIB			MTT	MT-4	EC50	>250 µM
Cc1ccsc1C(=O)Nc1ccc(Cl)c(C(=O)OC2CCCCC2)c1	IIIB			syncytia	CEM	EC50	0.494 µM
N=C(c1ccccc1)N1CCN(C(=O)C(=O)c2c[nH]c3c(Br)ccc(F)c23)CC1	Luciferase reporter virus			luciferase	HeLa(CD4+) + HeLa	EC50	<0.5 µM
Cc1sccc1C(=S)Nc1ccc(Cl)c(C(=O)OC2CCCCC2)c1			RT-V106A	syncytia	CEM	EC50	0.06 µM
O=C(O)C(=O)/C=C(\O)c1cc(Cc2ccc(F)c(Cl)c2)cn(Cc2c(F)cccc2F)c1=O					MAGI	EC50	5.1 µM
CC(C)OC(=O)CCNP(=O)(CO[C@H](C)Cn1cnc2c(N)ncnc21)N[C@H](C)C(=O)OC(C)C		10% human serum		fluorescence	MT4-GFP	EC50	378 µM
COc1cccc2c1nc(-c1ccccc1F)n2Cc1ccccc1	IIIB				MT-4	EC50	0.019 µg/mL
N=C1Sc2ccccc2C2=NCCCN12	93IN101			β-galactosidase	TZM-bl	EC50	1.6 µM
O=C(C(=O)N1CCN(C(=NC2CC2)c2ccccc2)CC1)c1c[nH]c2cccc(F)c12	Luciferase reporter virus			luciferase	HeLa(CD4+) + HeLa	EC50	>0.5 µM
CC(C)COC(=O)[C@H](C)NP(=O)(CO[C@H](C)Cn1cnc2c(N)ncnc21)NC[C@H](C)C(=O)OC(C)C		50% human serum		fluorescence	MT4-GFP	EC50	70.2 µM
Cn1cc(NC(=O)Nc2cc(C(=O)Nc3ccc4cc(S(=O)(=O)O)cc(S(=O)(=O)O)c4c3)n(C)c2)cc1C(=O)Nc1ccc2cc(S(=O)(=O)O)cc(S(=O)(=O)O)c2c1	RF			cytopathic effect / XTT	CEM + CEM-SS	EC50	80.7 µM
Cc1nc(N)nc(C)c1OCC(=O)N[C@@H](Cc1ccccc1)[C@H](O)CN(CC(C)C)S(=O)(=O)c1ccc2nc(N)oc2c1	LAI WT			cytopathic effect / MTT	MT-4	EC50	0.0389 µM
O=C(CNC(=O)COc1ccccc1)NCc1ccc(C(=O)N2CCCCC2)cc1	Clinical isolate		MDR769	RT activity	PBMC	EC50	18.8 µM
C[C@H]1CN(C(=NC#N)c2ccccc2)CCN1C(=O)C(=O)c1c[nH]c2c(-n3ccnn3)ncc(F)c12	Luciferase reporter virus			luciferase	HeLa(CD4+) + HeLa	EC50	<0.5 µM
CN1CC(=O)C(=O)C=C1Cn1cnc([N+](=O)[O-])c1Sc1ccc(Cl)cc1	IIIB			MTT	MT-4	EC90	>3.6 µM
Cc1ccc(C(=O)NC[C@H](O)[C@@]23CC[C@]4(C)[C@H](CC[C@@H]5[C@@]6(C)CC[C@H](OC(=O)[C@H]7C[C@@H](C(=O)O)C7(C)C)C(C)(C)[C@@H]6CC[C@]54C)C2=C(C(C)C)C(=O)C3)cc1	92HT599			p24 / ELISA	MT-2	EC50	<1 µM
CCCCCCCOC(=O)[C@@H](C)NP(=O)(CO[C@H](C)Cn1cnc2c(N)ncnc21)NC[C@H](C)C(=O)OC(C)C		50% human serum		fluorescence	MT4-GFP	EC50	12 µM
COc1cccc2c1nc(-c1ccccc1F)n2Cc1cccc(F)c1F	IIIB				MT-4	EC50	0.0055 µg/mL
CC(C)=CCOc1cc(NC(=S)c2ccsc2C)ccc1Cl			RT-K103N	syncytia	CEM	EC50	0.057 µM
CC(C)OC(=O)CCNP(=O)(CO[C@H](C)Cn1cnc2c(N)ncnc21)N[C@@H](C)C(=O)OC(C)C		50% human serum		fluorescence	MT4-GFP	EC50	44.1 µM
CC(C)C1=C2[C@H]3CC[C@@H]4[C@@]5(C)CC[C@H](OC(=O)[C@H]6C[C@@H](C(=O)O)C6(C)C)C(C)(C)[C@@H]5CC[C@@]4(C)[C@]3(C)CC[C@@]2(CC(=O)NCC(F)(CCCN)NC(=O)c2ccc(Cl)cc2)CC1=O	92HT599			p24 / ELISA	MT-2	EC50	<1 µM
O=C(O)C(=O)/C=C(\O)c1cc(Cc2ccc(F)cc2)cn(Cc2cccc(F)c2)c1=O					MAGI	EC50	1 µM
Cn1cc(NC(=O)Nc2cc(C(=O)Nc3cc(C(=O)Nc4cc(S(=O)(=O)O)c5cc(S(=O)(=O)O)cc(S(=O)(=O)O)c5c4)n(C)c3)n(C)c2)cc1C(=O)Nc1cc(C(=O)Nc2cc(S(=O)(=O)O)c3cc(S(=O)(=O)O)cc(S(=O)(=O)O)c3c2)n(C)c1	A17			cytopathic effect / XTT	CEM + CEM-SS	EC50	1 µM
CC(=O)OC[C@]1(O)CC23CCC4[C@@](C)(CCC[C@@]4(C)C=O)C2CC[C@H]1C3	IIIB			p24	H9	EC50	>100 µg/mL
CC(C)C1=C2[C@H]3CC[C@@H]4[C@@]5(C)CC[C@H](OC(=O)[C@H]6C[C@@H](C(=O)O)C6(C)C)C(C)(C)[C@@H]5CC[C@@]4(C)[C@]3(C)CC[C@@]2([C@@H](O)CNCc2ccc(F)cc2)CC1=O	92HT599			p24 / ELISA	MT-2	EC50	<1 µM
COc1ccc(NC(=O)c2ccoc2C)cc1CC(=O)OC(C)C	IIIB			syncytia	CEM	EC50	1.2 µM
O=C(O)C(=O)/C=C(\O)c1cc(Cc2ccc(F)c(Cl)c2)cn(Cc2ccc(F)cc2F)c1=O					MAGI	EC50	1.4 µM
CC(C)OC(=O)c1cc(NC(=S)c2ccco2)ccc1Cl	IIIB			syncytia	CEM	EC50	1.4 µM
Cn1cc(NC(=O)Nc2cc(C(=O)Nc3cc(C(=O)Nc4ccc(P(=O)(O)O)c5cc(P(=O)(O)O)ccc45)n(C)c3)n(C)c2)cc1C(=O)Nc1cc(C(=O)Nc2ccc(P(=O)(O)O)c3cc(P(=O)(O)O)ccc23)n(C)c1	N119			cytopathic effect / XTT	CEM + CEM-SS	EC50	0.3 µM
CC(C)OC(=O)c1cc(NC(=S)c2ccsc2)ccc1Cl			RT-V106A	syncytia	CEM	EC50	25 µM
C[C@@]12CCC[C@@](C)(C=O)C1CCC13C[C@@H](CO)[C@@H](CCC12)C3	IIIB			p24	H9	EC50	>100 µg/mL
COc1ccccc1C(=S)Nc1ccc(Cl)c(C(=O)OC(C)C)c1	IIIB			syncytia	CEM	EC50	0.261 µM
C[C@@]12CCC[C@@](C)(O)C1CCC13C[C@H](CCC12)[C@](O)(CO)C3	IIIB			p24	H9	EC50	>100 µg/mL
Cc1occc1C(=S)Nc1ccc(Cl)c(OC(=O)OC(C)C)c1			RT-K103N	syncytia	CEM	EC50	12 µM
Cc1cccc(Cc2cc(/C(O)=C/C(=O)C(=O)O)c(=O)n(Cc3cccc(Cl)c3F)c2)c1					MAGI	EC50	1.4 µM
Cc1ccsc1C(=S)Nc1ccc(Cl)c(C(=O)OC(C)C)c1			RT-L100I	syncytia	CEM	EC50	9 µM
CCCCCOC(=O)C(C)(C)NP(=O)(CO[C@H](C)Cn1cnc2c(N)ncnc21)N[C@@H](C)CC(=O)OC(C)C		10% human serum		fluorescence	MT4-GFP	EC50	23.3 µM
Cn1cccc1C(=S)Nc1ccc(Cl)c(/C=N/OC(C)(C)C)c1			RT-Y188L	syncytia	CEM	EC50	>5.6 µM
N#CN=C(c1ccccc1)N1CCN(C(=O)C(=O)c2c[nH]c3c(F)ccc(F)c23)CC1	Luciferase reporter virus			luciferase	HeLa(CD4+) + HeLa	EC50	<0.5 µM
C/C=C/COc1cc(NC(=S)c2ccoc2C)ccc1Cl			RT-L100I	syncytia	CEM	EC50	1.7 µM
O=C(O)C(=O)/C=C(\O)c1cc(Cc2ccccc2)cn(Cc2ccc(F)cc2)c1=O					MAGI	EC50	1 µM
CC1=C(C(=S)Nc2ccc(Cl)c(C=NOC(C)(C)C)c2)CCCO1			RT-V106A	syncytia	CEM	EC50	0.067 µM
Cc1nnc(C(=O)NC(C)(C)c2nc(C(=O)NCc3ccc(F)cc3)c(O)c(=O)n2C)o1	SF162			luciferase	TZM-bl	EC50	0.00219 µM
CC(C)=CCOc1cc(NC(=S)c2ccoc2C)ccc1Cl			RT-L100I	syncytia	CEM	EC50	0.021 µM
CNc1nc2ccc(S(=O)(=O)N(CC(C)C)C[C@@H](O)[C@H](Cc3ccccc3)NC(=O)c3cccc(N)c3C)cc2o1	LAI WT			cytopathic effect / MTT	MT-4	EC50	0.0204 µM
CN1CC(=O)C(=O)C=C1Cn1cnc([N+](=O)[O-])c1Nc1cccc(Cl)c1	IIIB			MTT		EC50	4.27 µM
Cc1occc1C(=S)Nc1ccc(Cl)c(/C=N/OCc2ccccc2)c1			RT-L100I	syncytia	CEM	EC50	>2.6 µM

The first 6 rows once more:

structure,strain or isolate,conditions,mutations,read by,cells,read-out,result
N#CN=C(c1ccccc1)N1CCN(C(=O)C(=O)c2c[nH]c3cccc(F)c23)CC1,Luciferase reporter virus,,,luciferase,HeLa(CD4+) + HeLa,EC50,<0.5 µM
Cn1cc(NC(=O)c2cc(N)nn2C)cc1C(=O)Nc1ccc2cc(S(=O)(=O)O)cc(S(=O)(=O)O)c2c1,RF,,,cytopathic effect / XTT,CEM + CEM-SS,EC50,>200 µM
Cc1ccsc1C(=S)Nc1ccc(Cl)c(C(=O)OC2CCCCC2)c1,,,RT-V106A,syncytia,CEM,EC50,1.5 µM
CC(C)C1=C2[C@H]3CC[C@@H]4[C@@]5(C)CC[C@H](OC(=O)[C@H]6C[C@@H](C(=O)O)C6(C)C)C(C)(C)[C@@H]5CC[C@@]4(C)[C@]3(C)CC[C@@]2(CCNC(F)(F)c2ccccc2)CC1=O,92HT599,,,p24 / ELISA,MT-2,EC50,<1 µM
O=C(C(=O)N1CCN(C(=NCCN2CCOCC2)c2ccccc2)CC1)c1c[nH]c2c(Br)ccc(F)c12,Luciferase reporter virus,,,luciferase,HeLa(CD4+) + HeLa,EC50,<0.5 µM
Cc1cc2[nH]cnc2c(C)c1OCC(=O)N[C@@H](Cc1ccccc1)[C@H](O)CN(CC(C)C)S(=O)(=O)c1ccc2nc(N)oc2c1,LAI WT,,,cytopathic effect / MTT,MT-4,EC50,0.0013 µM

An empty or dashed field is not shown. Rows are shuffled and stem from different studies.